Assay results from PMC5247711.

How the values were obtained:
[1] = test system: STAT3 (phospho-activated, ESAT-6-treated macrophages) + NF-kB p65; assay: EMSA supershift; conditions: total extract, ESAT-6 60 min, anti-STAT3 disrupts, anti-p65 supershifts; EMSA: 3-6 ug protein extract with 32P-labeled dsDNA probe, on ice 30 min; salt and pH not given; protein in an extract; label: 32P
[2] = target: STAT3 (ESAT-6-treated macrophages) (Homo sapiens (monocyte-derived macrophages)) (UniProt P40763); assay: EMSA, competition and supershift; conditions: cellular extract, ESAT-6 stimulated; EMSA: 3-6 ug protein extract with 32P-labeled dsDNA probe, on ice 30 min; salt and pH not given; protein in an extract; label: 32P
[3] = target: STAT3 (phospho-activated, ESAT-6-treated macrophages) (Mus musculus (bone marrow-derived macrophages)) (UniProt P42227); assay: EMSA, antibody disruption, cold self competition; conditions: nuclear extract, ESAT-6 60 min; EMSA: 3-6 ug protein extract with 32P-labeled dsDNA probe, on ice 30 min; salt and pH not given; protein in an extract; label: 32P

Sequence	binding result [1]	binding result [2]	binding result [3]
GATCCTTCTGGGAATTCCTAGATC (double strand) [STAT3 binding site]	binds	binds	binds
TGGGATTTTCCCATGAGTCTC (double strand) [mouse IL-6 proximal promoter (-75 to -55)]	binds	–	–

For at least one entry, the source does not settle the construct or the ends of the probe. At least one result comes from cells or an extract, where the contact may be indirect. For some of these results: At least one verdict was read from the data and is not stated in words by the source.
